According to the supplement of paper PMC3578754:
Fold change is the IC50 on the isolate divided by the IC50 on a reference virus; 1 = unchanged, higher = more resistant. Changes are given against the subtype B consensus. No active / inactive call. The values were gathered from many studies (numbered anew) with different assays, which the source does not name. Most viruses are clinical isolates; some are laboratory strains or clones with known resistance changes. Isolates with mixed residues are left out; stretches that were not sequenced show no change. Round top values that many isolates share are read here as limits; other very high values and 0.1 may be limits too.

What was measured:
Experiment in all cases: fold change of IC50 against reference virus; higher = more resistant
delavirdine = compound: CC(C)Nc1cccnc1N1CCN(C(=O)c2cc3cc(NS(C)(=O)=O)ccc3[nH]2)CC1 [delavirdine]
Experimental: (§1)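 Cell-culture drug susceptibility tests of virus bearing the reverse transcriptase of each isolate, gathered from many studies.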

nevirapine = compound: Cc1ccnc2c1NC(=O)c1cccnc1N2C1CC1 [nevirapine]
Experimental: as §1

stavudine = compound: Cc1cn([C@H]2C=C[C@@H](CO)O2)c(=O)[nH]c1=O [stavudine]
Experimental: as §1

zidovudine = compound: Cc1cn([C@H]2C[C@H](N=[N+]=[N-])[C@@H](CO)O2)c(=O)[nH]c1=O [zidovudine]
Experimental: as §1

zalcitabine = compound: Nc1ccn([C@H]2CC[C@@H](CO)O2)c(=O)n1 [zalcitabine]
Experimental: as §1

abacavir = compound: Nc1nc(NC2CC2)c2ncn([C@H]3C=C[C@@H](CO)C3)c2n1 [abacavir]
Experimental: as §1

efavirenz = compound: O=C1Nc2ccc(Cl)cc2[C@@](C#CC2CC2)(C(F)(F)F)O1 [efavirenz]
Experimental: as §1

didanosine = compound: O=c1[nH]cnc2c1ncn2[C@H]1CC[C@@H](CO)O1 [didanosine]
Experimental: as §1

Test System	fold change of IC50 against reference virus (delavirdine)	fold change of IC50 against reference virus (nevirapine)	fold change of IC50 against reference virus (stavudine)	fold change of IC50 against reference virus (zidovudine)	fold change of IC50 against reference virus (zalcitabine)	fold change of IC50 against reference virus (abacavir)	fold change of IC50 against reference virus (efavirenz)	fold change of IC50 against reference virus (didanosine)
HIV-1 isolate 520 (reverse transcriptase changes: K20R D67G S68G K70R R211S T215F K219Q K281R E297K, study 109)	0.5	0.3	1.3	31	1.3	1.8	0.3	1.1
HIV-1 isolate 1083 (reverse transcriptase changes: D123E I142T D177E V245I D250E I293V A376T A400S, study 54)	2.1	1.2	0.8	0.8	1	0.8	1.2	1
HIV-1 isolate 321 (reverse transcriptase changes: T39A D67N R83K D123E D177E G196E I202V Q207K R211A T215L K219Q K277R I293V Q334L K390R A400S, study 54)	0.5	0.3	1.2	1.2	1	0.7	0.4	1.1
HIV-1 isolate 142 (reverse transcriptase changes: M41L S68G M184V Q207E T215Y, study 28)	0.3	0.5	1.3	2.4	1.6	4.7	0.3	1.4
HIV-1 isolate 1270 (reverse transcriptase changes: V60I D121Y K122E D177E M184V, study 28)	0.8	0.4	0.7	0.5	1.7	3.7	0.5	1.1
HIV-1 isolate 60 (reverse transcriptase changes: M41L E44D D67N L74V A98G V118I K122E D123N E169D G190E E203K Q207E H208Y L210W R211K T215Y K219N K223E, study 40)	47	135	5	216	2	10	77	7
HIV-1 isolate 555 (reverse transcriptase changes: K20R M41L S48P K49R D76N N81Y K102Q K122E I135T Q174H D177E V179I M184V Q207E R211K T215Y L228H L260V A272S R284K, study 40)	1	1	3	488	3	9	1	2
HIV-1 isolate 690 (reverse transcriptase changes: M41L M184V G196E T200K, study 28)	0.4	0.7	0.9	0.8	1.9	4.3	0.2	1.4
HIV-1 isolate 1513 (reverse transcriptase changes: M41L E44D K104R D123E I142V V179I Y181V T200I T215Y Q242K V245E A272P K277R E297K, study 40)	37	166	1	8	2	4	2	3
HIV-1 isolate 1568 (reverse transcriptase changes: I178M M184V, study 28)	0.9	0.7	0.6	0.4	1.9	3.5	0.4	1.3
HIV-1 isolate 30 (reverse transcriptase changes: D121H K122E S162C D177E M184V R211K, study 28)	0.8	0.4	0.7	0.4	2.1	3.6	0.5	1.4
HIV-1 isolate 1226 (reverse transcriptase changes: I142V S162C M184V R211K, study 28)	2	1.1	0.7	0.3	1.5	2.9	1.3	1.3
HIV-1 isolate 1153 (reverse transcriptase changes: K20R M41L R83K K122P E138A K166R V179I M184V T200A L210W T215Y, study 40)	1	1	1	225	2	5	1	3
HIV-1 isolate 613 (reverse transcriptase changes: T27S I31V K64H D67N T69N K70R K122E M184V I195L D218E K219Q L228H V245M E248V K249Q A288T I293V, study 112)	0.7	0.3	2.3	7.9	2.3	7.7	0.4	1.8
